Results of unrelated studies side by side (data: NIAID ChemDB).

All rows: tests in culture; agent: Mycobacterium avium intracellulare

An empty or dashed field is not shown.

compound | method | endpoint | conditions | strain | result
COc1cc2ccnc3c2c(c1OC(=O)c1ccc(OC(F)(F)F)cc1)N(C)C=C3 |  | EC50 |  |  | 1 µg/mL
CCn1c(S)c(N=NC(N)=O)c2ccccc21 |  | MIC |  | CNCTC D38/92 | 250 µM
CC1COc2c(C3(N)CC3)c(F)cc3c(=O)c(C(=O)O)cn1c23 |  | MIC90 |  | 17 strains | 100 µg/mL
CC(=O)Oc1ccccc1C(=O)Nc1ncc([N+](=O)[O-])s1 |  | MIC |  |  | 2 µg/mL
COc1ccc2c(c1)N(C[C@H](C)CN(C)C)c1ccccc1S2 |  | MIC |  | R 8411 | 25 µg/mL
NNC(=O)c1ccncc1 |  | MIC90 |  | 17 strains | 100 µg/mL
CO[C@H]1/C=C/O[C@@]2(C)Oc3c(C)c(O)c4c(O)c(c5c(c4c3C2=O)NC2(CCN(CC(C)C)CC2)N=5)=NC(=O)/C(C)=C\C=C\[C@H](C)[C@H](O)[C@@H](C)[C@@H](O)[C@@H](C)[C@H](OC(C)=O)[C@@H]1C |  | MIC |  | 74 | 0.125 µg/mL
CC[C@H]1OC(=O)[C@H](C)[C@@H](O[C@H]2C[C@@](C)(OC)[C@@H](OC(C)=O)[C@H](C)O2)[C@H](C)[C@@H](O[C@@H]2O[C@H](C)C[C@H](N(C)C)[C@H]2OC(=O)NNCCCc2ccccc2)C(C)(O)C[C@@H](C)/C(=N\OCCCC2CCCCC2)[C@H](C)[C@@H](O)[C@]1(C)O |  | MIC |  | 20066 (clarithromycin-susceptible) | 0.78 µg/mL
CC[C@@H](C)[C@H](OC(=O)/C=C/c1ccccc1)[C@H](C)[C@H](O)C/C=C/C=C/C(N)=O |  | MIC |  |  | 100 µg/mL
NC[C@@H]1O[C@H](O[C@H]2[C@@H](O)[C@H](O[C@@H]3[C@@H](O)[C@H](N)C[C@H](N)[C@H]3O[C@H]3O[C@H](CO)[C@@H](O)C[C@H]3N)O[C@@H]2CO)[C@H](N)[C@@H](O)[C@@H]1O[C@H]1O[C@H](CO)[C@@H](O)[C@H](O)[C@@H]1O |  | MIC |  | 10 strains | 200 µg/mL
CC[C@H]1OC(=O)[C@H](C)[C@@H](OC2C[C@@](C)(OC)[C@@H](O)[C@H](C)O2)[C@H](C)[C@@H](O[C@@H]2O[C@H](C)C[C@H](N(C)C)[C@H]2O)C(C)(O)C[C@@H](C)/C(=N\OCCOc2ccccc2)[C@H](C)[C@@H](O)[C@]1(C)O |  | MIC |  | 20066 (clarithromycin-susceptible) | 3.13 µg/mL
CC1COc2c(N3CCN(C)CC3)c(F)cc3c(=O)c(C(=O)O)cn1c23 |  | MIC |  | 38 strains | ≥5 µg/mL
CSc1nc(N)c2c(n1)NC(c1ccccc1)CC(c1ccc3c(c1)OCO3)=N2 | MTT / broth dilution / absorbance | MIC | clinical isolate | MNT1408 | >32 µg/mL
C[C@@H]1CN(c2c(F)c(N)c3c(=O)c(C(=O)O)cn(C4CC4)c3c2F)C[C@H](C)N1 |  | MIC |  | 3 isolates | 0.1–0.3 µg/mL
N/C(=N\N=C\c1cc2ccccc2s1)c1ccccn1 |  | MIC |  |  | >16 µg/mL
COc1cc2ccnc3c2c(c1OC(=O)c1ccccc1C)N(C)C=C3 |  | MIC |  |  | 10 µg/mL
COc1c(O)c2c(=O)cc(OC)c3c4c(OC)cc(=O)c5c(O)c(OC)c6c(c(c1CC(C)=C6OC(C)=O)c23)c54 |  | MBC |  |  | >100 µg/mL
CC[C@H]1OC(=O)[C@H](C)[C@@H](O[C@H]2C[C@@](C)(OC)[C@@H](OC(C)=O)[C@H](C)O2)[C@H](C)[C@@H](O[C@@H]2O[C@H](C)C[C@H](N(C)C)[C@H]2O)C(C)(O)C[C@@H](C)/C(=N\OCCCC2CCCCC2)[C@H](C)[C@@H](O)[C@]1(C)O |  | MIC50 |  | 12 strains | 1.56 µg/mL
CCCCCCCCO/N=C1\[C@H](C)CC(C)(O)[C@H](O[C@@H]2O[C@H](C)C[C@H](N(C)C)[C@H]2O)[C@@H](C)[C@H](OC2C[C@@](C)(OC)[C@@H](O)[C@H](C)O2)[C@@H](C)C(=O)O[C@H](CC)[C@@](C)(O)[C@H](O)[C@H]1C |  | MIC |  | 20066 (clarithromycin-susceptible) | 6.25 µg/mL
CSc1nc(N)c2c(n1)NC(c1ccc(C(F)(F)F)cc1)CC(c1ccc3c(c1)OCO3)=N2 | MTT / broth dilution / absorbance | MIC | clinical isolate | MNT1408 | >32 µg/mL
CC1COc2c(N3CCN(C)CC3)c(F)cc3c(=O)c(C(=O)O)cn1c23 |  | MIC |  | 23 strains | >10 µg/mL
COc1cc2ccnc3c2c(c1OC(=O)c1ccc(C)cc1)N(C)C=C3 |  | MIC |  |  | 5 µg/mL
OCCN1CCN(CCC=C2c3ccccc3Sc3ccc(Cl)cc32)CC1 |  | MIC |  | R 8656 | 12.5 µg/mL
COc1cc2ccnc3c2c(c1OC(=O)c1ccc(CCl)cc1)N(C)C=C3 |  | MIC |  |  | 10 µg/mL
CCCCO/N=C1\[C@H](C)CC(C)(O)[C@H](O[C@@H]2O[C@H](C)C[C@H](N(C)C)[C@H]2O)[C@@H](C)[C@H](O[C@H]2C[C@@](C)(OC)[C@@H](OC(C)=O)[C@H](C)O2)[C@@H](C)C(=O)O[C@H](CC)[C@@](C)(O)[C@H](O)[C@H]1C |  | MIC |  | 20066 (clarithromycin-susceptible) | >50 µg/mL
O=C1C(=S)N(Cc2ccccc2)c2ccccc21 |  | MIC |  | CNCTC D38/92 | 63 µM
N/C(=N\N=C\c1nc2cc(Cl)ccc2o1)c1cnccn1 |  | MIC |  |  | >16 µg/mL
OCCN1CCN(CC/C=C2/c3ccccc3Sc3ccc(C(F)(F)F)cc32)CC1 |  | MIC |  | E 48067 | 12.5 µg/mL
N/C(=N\N=C\c1ccncc1)c1cnccn1 |  | MIC |  |  | >16 µg/mL
Cc1c(F)c(N2CCNC(C)C2)cc2c1c(=O)c(C(=O)O)cn2C1CC1 |  | MIC90 |  | 17 strains | 12.5 µg/mL
CSc1nc(N)c2c(n1)NC(c1ccc(Cl)cc1)CC(c1ccc3c(c1)OCO3)=N2 | MTT / broth dilution / absorbance | MIC | clinical isolate | MNT1408 | >32 µg/mL
CCOC(=O)C(=O)N=Nc1c(S)n(CC)c2ccccc12 |  | MIC |  | CNCTC D38/92 | >1000 µM
N/C(=N\N=C\c1ccccn1)c1cnccn1 |  | MIC |  |  | >16 µg/mL
CCCCCN1C(=S)C(=O)c2ccccc21 |  | MIC |  | CNCTC D39/93 | 32 µM
CC(C)=CCc1cc(O)c(O)c(CC=C(C)C)c1-c1oc2c(CC=C(C)C)c(O)cc(O)c2c(=O)c1O |  | MIC |  | ATCC 23068 | >100 µg/mL
CCCCCCC(=O)O[C@H]1[C@H](C)[C@@H](O[C@@H]2O[C@H](C)C[C@H](N(C)C)[C@H]2O)C(C)(O)C[C@@H](C)/C(=N\OCCCOc2ccccc2)[C@H](C)[C@@H](O)[C@](C)(O)[C@@H](CC)OC(=O)[C@@H]1C |  | MIC |  | 20066 (clarithromycin-susceptible) | 3.13 µg/mL
CN1CCN(c2c(F)cc3c(=O)c(C(=O)O)cn(CCF)c3c2F)CC1 |  | MIC50 |  | N-260 | 50 µg/mL
CC[C@H]1OC(=O)[C@H](C)[C@@H](OC2C[C@@](C)(OC)[C@@H](OC(=O)CCc3ccccc3)[C@H](C)O2)[C@H](C)[C@@H](O[C@@H]2O[C@H](C)C[C@H](N(C)C)[C@H]2O)C(C)(O)C[C@@H](C)/C(=N\OCCCOc2ccccc2)[C@H](C)[C@@H](O)[C@]1(C)O |  | MIC |  | 20066 (clarithromycin-susceptible) | 0.78 µg/mL
CC1COc2c(N3CCN(C)CC3)c(F)cc3c(=O)c(C(=O)O)cn1c23 |  | MIC90 |  | 31 strains | 50 µg/mL
COc1cc2ccnc3c2c(c1OC(=O)c1cc(F)ccc1F)N(C)C=C3 |  | EC50 |  |  | >15 µg/mL
CCCCNNC(=O)O[C@H]1[C@H](O[C@@H]2[C@@H](C)[C@H](O[C@H]3C[C@@](C)(OC)[C@@H](OC(C)=O)[C@H](C)O3)[C@@H](C)C(=O)O[C@H](CC)[C@@](C)(O)[C@H](O)[C@@H](C)/C(=N/OCCCC3CCCCC3)[C@H](C)CC2(C)O)O[C@H](C)C[C@@H]1N(C)C |  | MIC |  | 20066 (clarithromycin-susceptible) | 0.78 µg/mL
COc1cc2ccnc3c2c(c1OC(=O)c1cccc(C)c1)N(C)C=C3 |  | MIC |  |  | 10 µg/mL
CC[C@H]1OC(=O)[C@H](C)[C@@H](OC2C[C@@](C)(OC)[C@@H](OC(C)=O)[C@H](C)O2)[C@H](C)[C@@H](O[C@@H]2O[C@H](C)C[C@H](N(C)C)[C@H]2O)C(C)(O)C[C@@H](C)/C(=N\OCCCOc2ccccc2)[C@H](C)[C@@H](O)[C@]1(C)O |  | MIC |  | 20066 (clarithromycin-susceptible) | 0.78 µg/mL

Repeating the final 3 entries:

compound,method,endpoint,conditions,strain,result
CCCCNNC(=O)O[C@H]1[C@H](O[C@@H]2[C@@H](C)[C@H](O[C@H]3C[C@@](C)(OC)[C@@H](OC(C)=O)[C@H](C)O3)[C@@H](C)C(=O)O[C@H](CC)[C@@](C)(O)[C@H](O)[C@@H](C)/C(=N/OCCCC3CCCCC3)[C@H](C)CC2(C)O)O[C@H](C)C[C@@H]1N(C)C,,MIC,,20066 (clarithromycin-susceptible),0.78 µg/mL
COc1cc2ccnc3c2c(c1OC(=O)c1cccc(C)c1)N(C)C=C3,,MIC,,,10 µg/mL
CC[C@H]1OC(=O)[C@H](C)[C@@H](OC2C[C@@](C)(OC)[C@@H](OC(C)=O)[C@H](C)O2)[C@H](C)[C@@H](O[C@@H]2O[C@H](C)C[C@H](N(C)C)[C@H]2O)C(C)(O)C[C@@H](C)/C(=N\OCCCOc2ccccc2)[C@H](C)[C@@H](O)[C@]1(C)O,,MIC,,20066 (clarithromycin-susceptible),0.78 µg/mL

Conditions beyond the fields shown may differ between rows. Two numbers with a dash give a range or band. MIC50, MIC90 and the like: level of inhibition, or share of isolates inhibited. ECn: concentration that inhibits the pathogen or its effect by n%.